Laboratory results taken from US4485113A (priority 1979, dated 1984).

What follows are compounds tested on root-knot nematode, Meloidogyne incognita var. acrita (assay: Nematocide Test). Conditions: 3.33 mg of test compound per jar; galling of cucumber roots, approximately 3 weeks.
Design: key to the marks not given beside the values

SMILES | pesticidal activity rating, Nematode
CSC(C)(C)C=NOC(=O)N(C)SC(C)(CCl)CCl | C
CC1OCSC1=NOC(=O)N(C)SC(C)(C)CCl (stereo not shown) | C
CN(SC(C)(C#N)CCl)C(=O)ON=CC(C)(C)[N+](=O)[O-] (stereo not shown) | A
CSC(C)=NOC(=O)N(C)SC(C)(C)CCl | A
CN(SC(C)(C)CCl)C(=O)ON=C1CSCCS1 | A
CN(SC(C)(C#N)CCl)C(=O)ON=C1CSCCS1 (stereo not shown) | A
CN(SC(C)(CCl)CCl)C(=O)ON=C1SC(C)(C)C(=O)N1C | C
CSC(C)(C)C=NOC(=O)N(C)SC(C)(C#N)CCl (stereo not shown) | A
CN(SC(C)(CCl)CCl)C(=O)ON=C1CSCCS1 | A
CSC(C)(C)C=NOC(=O)N(C)SC(C)(C)CCl | B
